PubChem BioAssay AID504761, Drosophila RNAi Screening Center | 2011

Assay: 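Genome-wide fly cell screen for genes dengue virus requires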 (primary screen)
System: D.Mel-2 cells from Drosophila
Reagent: long dsRNA against Drosophila genes
Challenge: infection with dengue virus type 2; dose and infection time not stated
Measured: 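Cells stained for dengue envelope protein and imaged; percent of infected cells per well on duplicate plates, ranked by infection, with stained nuclei counted for cell number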
Scale: infection score: higher = more virus-infected cells
Active means: 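Very low infection ranking in both replicate wells (chance probability at most 0.065), then a retest showing infection dropped 1.5-fold or more at p below 0.05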
Calls: active = confirmed: knock-down lowers infection; inactive = not picked or not confirmed
The screen tested about 22,000 reagents; this is an unselected part of those with a known target gene and a result. Over the whole deposit, 116 (0.52%) were called active. 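Calls depend on retest data that are not deposited; infection was ranked per plate without normalising between plates; the unit of the infection score is not given.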 Unmarked entries are inactive. A plus sign joins genes that one reagent is predicted to hit. Further read-outs or replicates are left out here. Not stated in the record: the amount of reagent, the time to read-out.

target gene | amplicon | infection score, replicate 1 | infection score, replicate 2
DnaJ-H (DnaJ homolog) | DRSC03273 | 3.47 | 19.3
yellow-g2 | DRSC08338 | 1.16 | 3.11
HIP + HIP-R | DRSC18245 | 1.53 | 2.4
HIP + HIP-R | DRSC27912 | 4.99 | 8.17
g (garnet) | DRSC20335 | 28.1 | 20.3
g (garnet) | DRSC26118 | 8.48 | 5.23
Est-6 (Esterase 6) | DRSC11162 | 1.05 | 1.47
slmb (supernumerary limbs) | DRSC17056 | 2.15 | 2.76
sno (strawberry notch) | DRSC20378 | 1.23 | 5.5
iPLA2-VIA (calcium-independent phospholipase A2 VIA) | DRSC10699 | 10.3 | 5.94
Or98a (Odorant receptor 98a) | DRSC16774 | 3.1 | 4.36
Or98a (Odorant receptor 98a) | DRSC26173 | 17.3 | 1.24
inaF-A | DRSC19660 | 32.8 | 20.1
Spn42De (Serpin 42De) | DRSC05011 | 12.2 | 18.4
Spn42De (Serpin 42De) | DRSC28039 | 13 | 7.19
snRNP-U1-C (small ribonucleoprotein particle U1 subunit C) | DRSC15804 | 8.54 | 9.3
pygo (pygopus) | DRSC14322 | 3.42 | 13
pygo (pygopus) | DRSC25137 | 1.32 | 1.07
AspRS-m (Aspartyl-tRNA synthetase, mitochondrial) | DRSC02646 | 5.05 | 2.91
B-H1 (BarH1) | DRSC21922 | 1.81 | 2.99
B-H1 (BarH1) | DRSC27190 | 10.6 | 22.2
ERp60 (Endoplasmic reticulum p60) | DRSC07309 | 10.3 | 20.1
ERp60 (Endoplasmic reticulum p60) | DRSC24471 | 2.05 | 1.44
Hsp70Aa + Hsp70Ab | DRSC21246 | 0.23 | 1.4
Hsp70Aa + Hsp70Ab | DRSC29327 | 5.44 | 7.18
LRP1 (LDL receptor protein 1) | DRSC07238 | 3.12 | 12.7
Trc8 (TRC8 ring finger protein) | DRSC15437 | 7.36 | 2.32
Trc8 (TRC8 ring finger protein) | DRSC28575 | 3.83 | 0.58
RpL6 (Ribosomal protein L6) | DRSC14323 | 0.76 | 2.47
RpL6 (Ribosomal protein L6) | DRSC22384 | 1.95 | 1.87
RpL6 (Ribosomal protein L6) | DRSC25982 | 1.97 | 2.32
CG10384 | DRSC03933 | 0.96 | 2.35
CG10384 | DRSC28924 | 17.9 | –
Andorra | DRSC19475 | 1.91 | 16.9
dmt (dalmatian) | DRSC16932 | 2.42 | 18.3
Sdc (Syndecan) | DRSC04654 | 1.7 | 1.28
Sdc (Syndecan) | DRSC25762 | 1.49 | 5.53
CG6067 | DRSC18399 | 1.78 | 5.79
CG33333 | DRSC13233 | 1.5 | 1.67

5 entries from above, showing only “infection score, replicate 2”:
yellow-g2 [DRSC08338]: 3.11
HIP + HIP-R [DRSC18245]: 2.4
HIP + HIP-R [DRSC27912]: 8.17
g (garnet) [DRSC20335]: 20.3
g (garnet) [DRSC26118]: 5.23
